{
  "source": "paper PMC12114598",
  "about": "“Repositioning FDA-Approved Sulfonamide-Based Drugs as Potential Carbonic Anhydrase Inhibitors in Trypanosoma cruzi: Virtual Screening and In Vitro Studies” (Pharmaceuticals, 2025)",
  "type_in_all_cases": "cell-based, Trypanosoma cruzi",
  "details_in_all_cases": "CC50/IC50",
  "key": {"[1]": {"tested_on": "T. cruzi epimastigotes, NINOA strain", "assay": "Trypanocidal activity, epimastigotes in vitro, NINOA strain"}, "[2]": {"tested_on": "T. cruzi epimastigotes, A1 strain", "assay": "Trypanocidal activity, epimastigotes in vitro, A1 strain", "excerpt": "The selected drugs were purchased from Sigma-Aldrich without further purification. For the in vitro evaluation, the methodology proposed by Domínguez-Diaz et al. 2021 [53] against epimastigotes of T. cruzi strains NINOA (MHOM/MX/1994/NINOA) and A1 for the evaluation of candidate compounds was used. Both strains were maintained in liver-infusion tryptose (LIT) medium supplemented with 10% fetal bovine serum (FBS) and 0.1% penicillin–streptomycin. These strains were maintained by transferring 1 × 10^6 parasites/mL to fresh medium once a week. […] All compounds were initially prepared at a concentration of 10 mg/mL using dimethyl sulfoxide (DMSO) as a diluent. Serial dilutions were then performed with LIT medium until concentrations of 100 to 0.46 μg/mL of each compound were obtained. Amounts of 1 × 10^6 T. cruzi epimastigotes were grown in each well and incubated for 48 h at 28 °C in a final volume of 200 μL. DMSO was included as a negative control, and reference drugs as positive controls. At the end of the incubation period, 20 μL of resazurin solution (2.5 mM) was added to each well and incubated for 3 h. All assays were performed in triplicate, and the IC50 value was determined by probit analysis."}, "[3]": {"tested_on": "T. cruzi blood trypomastigotes, NINOA strain", "assay": "Trypanocidal activity, blood trypomastigotes ex vivo, NINOA strain"}, "[4]": {"tested_on": "T. cruzi amastigotes, NINOA strain", "assay": "Amastigote assay, NINOA strain", "procedure": "Amastigote susceptibility to reference drugs was evaluated in vitro. […] The lysis solution was then replaced with Schneider’s medium followed by incubation at 28 °C for another 4 to 5 days to allow the transformation of viable amastigotes and their subsequent proliferation. Then, MTT colorimetric assays were performed. Finally, the half maximal inhibitory concentration (IC50) was determined by probit analysis. All studies were approved by the Institutional Committee for Handling and Animal Care of the Facultad de Ciencias Quimicas de la Universidad Autonoma “Benito Juarez” de Oaxaca (Register FCQ-CIP-0209243, Approved 23 September 2024) and were carried out according to Mexican guidance (NOM-062-ZOO-1999)."}},
  "data": [
    {"smiles": "CC(=O)c1ccc(S(=O)(=O)NC(=O)NC2CCCCC2)cc1", "note": "[Ace, acetohexamide]", "values": [
      {"measurement": "SI Epimastigote NINOA", "setting": "[1]", "result": ">30.7"},
      {"measurement": "SI Epimastigote A1", "setting": "[2]", "result": ">3.8"},
      {"measurement": "SI Trypomastigote NINOA", "setting": "[3]", "result": ">4.3"},
      {"measurement": "SI Amastigote NINOA", "setting": "[4]", "result": ">4.34"}
    ]},
    {"smiles": "CCC1=C(C)CN(C(=O)NCCc2ccc(S(=O)(=O)NC(=O)N[C@H]3CC[C@H](C)CC3)cc2)C1=O", "note": "[Glim, glimepiride]", "values": [
      {"measurement": "SI Epimastigote NINOA", "setting": "[1]", "result": 0.2},
      {"measurement": "SI Epimastigote A1", "setting": "[2]", "result": 0.38}
    ]},
    {"smiles": "CCCCNC(=O)NS(=O)(=O)c1ccc(C)cc1", "note": "[Tol, tolbutamide]", "values": [
      {"measurement": "SI Epimastigote NINOA", "setting": "[1]", "result": ">23.5"},
      {"measurement": "SI Trypomastigote NINOA", "setting": "[3]", "result": ">20.4"},
      {"measurement": "SI Amastigote NINOA", "setting": "[4]", "result": ">1.3"}
    ]}
  ]
}
